# Laboratory results published in publication PMC7319586.
# For at least one entry, the source does not settle the construct or the ends of the probe.
# Test system: AbiEi (Streptococcus agalactiae)
# Assay: EMSA
# Settings: positive co-operativity; recombinant protein; protein details: His6-SUMO removed by SENP, untagged; label: 5' 6-FAM on strand 2
sequence,measurement,value
"AAAAGAAAATGTTGCTTTTATACCACAAATATTGTAAAATTGTAGTGTAAAAGCAACAAGTGGGGGGCCGTAAGCTTTTGTCAGTGCGCA (double strand) [PabiEi -1 to -71 WT (IR1-IR2, TRB1061)]",binding result,binds
